Measured values from several laboratories, pooled; numbers as filed in NIAID ChemDB.

All rows: tests in culture; species: HIV-1; cells: CEM; method: syncytia; measure: fold resistance

Fold resistance has wild type as its base. Blank or dashed fields: not listed here. Lines come from different laboratories, so protocols vary.

| compound | strain or isolate | mutations | result |
|---|---|---|---|
| CC1=C(C(=O)Nc2ccc(Cl)c(C(=O)OC(C)C)c2)SCCO1 | IIIB | RT-V179D | 22 |
| CC(C)c1c(Sc2ccccc2)n(COCc2ccccc2)c(=O)[nH]c1=O | IIIB TIBO R82913-resistant (RT K103N) | RT-K103N | 250 |
| CC(C)OC(=O)c1cc(NC(=S)OC(C)C)ccc1Cl | IIIB | RT-E138K | 42.8 |
| COc1ccc(NC(=S)OC(C)C)cc1CC(=O)OC(C)C | - | RT-E138K | 7.36 |
| CCc1c(Sc2ccccc2)n(COCc2ccccc2)c(=O)[nH]c1=O | IIIB | Nevirapine resistant (RT Y181C) | 60 |
| CCOC(=O)c1cc(NC(=S)OC(C)C)ccc1SC | - | RT-Y181C | 83.5 |
| CC(C)=CCOc1cc(NC(=S)c2ccoc2C)ccc1Cl | IIIB | RT-Y188L | 166.7 |
| CC(C)=CCOc1cc(NC(=S)c2ccoc2C)ccc1Cl | IIIB | RT-L100I | 3 |
| CC1=C(C(=O)Nc2ccc(Cl)c(C(=O)OC3CCCC3)c2)SCCO1 | TSAO-resistant (RT E138K) | RT-E138K | 27.5 |
| CSC(=Nc1ccc(Cl)c(C(=O)OC(C)C)c1)OC(C)C | - | RT-V106A | >1 |
| CCCOC(=O)c1cc(NC(=O)C2=C(C)OCCS2)ccc1Cl | TIBO-resistant (RT L100I) | RT-L100I | 95 |
| CC(C)OC(=S)Nc1ccc(Cl)c(C(=O)OCc2ccccc2)c1 | - | RT-E138K | 1.86 |
| CCOCn1c(Sc2ccccc2)c(CC)c(=O)[nH]c1=S | IIIB | RT-Y181C | 136 |
| CC1=C(C(=O)Nc2ccc(Cl)c(C(=O)OC3CCCCC3)c2)SCCO1 | TIBO-resistant (RT L100I) | RT-L100I | 21.25 |
| CC1=C(C(=O)Nc2ccc(Cl)c(C(=O)OC(C)C)c2)SCCO1 | - | RT-V106A | >1330 |
| Cc1cc(C)cc(Sc2c(C(C)C)c(=O)[nH]c(=S)n2COCCO)c1 | IIIB | RT-Y181C | 56.7 |
| CC(C)OC(=S)Nc1ccc(Cl)c(C(=O)OCC2CC2)c1 | - | RT-E138K | 15 |
| CCc1c(Cc2cc(C)cc(C)c2)n(COCCO)c(=O)[nH]c1=O | IIIB | RT-Y181C | 46.4 |
| CC1=C(C(=O)Nc2ccc(C)c(C(=O)OC(C)C)c2)SCCO1 | TSAO-resistant (RT E138K) | RT-E138K | 18.9 |

Again, the opening 2 rows:

compound | strain or isolate | mutations | result
CC1=C(C(=O)Nc2ccc(Cl)c(C(=O)OC(C)C)c2)SCCO1 | IIIB | RT-V179D | 22
CC(C)c1c(Sc2ccccc2)n(COCc2ccccc2)c(=O)[nH]c1=O | IIIB TIBO R82913-resistant (RT K103N) | RT-K103N | 250